Zika virus NS2B-NS3: effect of single substitutions on growth in cell culture

The scanned region of Zika virus MR766 is shown below (positions 1-308): NS2B is 2-131, NS3 begins at position 132.
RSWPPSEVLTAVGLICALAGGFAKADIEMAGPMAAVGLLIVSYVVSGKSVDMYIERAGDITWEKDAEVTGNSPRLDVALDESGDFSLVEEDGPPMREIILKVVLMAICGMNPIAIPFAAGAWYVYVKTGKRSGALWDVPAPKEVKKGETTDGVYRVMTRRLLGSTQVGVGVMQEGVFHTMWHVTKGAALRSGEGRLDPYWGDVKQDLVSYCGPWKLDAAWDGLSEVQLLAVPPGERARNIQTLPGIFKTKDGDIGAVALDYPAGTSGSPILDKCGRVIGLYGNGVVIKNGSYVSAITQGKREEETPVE

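Pools of virus carrying all single amino acid changes were selected for growth in Huh-7.5 cells. Sequencing of three replicate libraries (two for positions 207-308) was averaged into one effect per change. The study looked for pockets that tolerate few changes, as a guide for inhibitor design.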

The number is log2 of the effect relative to wild type; negative values mean reduced growth, higher values better tolerance. A change reads original residue, position, new residue. This list holds changes to tyrosine only.

* S42Y = -5.57
* V44Y = -5.98
* V45Y = -4.45
* S46Y = -3.46
* G47Y = -6.08
* K48Y = -4.67
* S49Y = -4.27
* V50Y = -5.98
* D51Y = -3.47
* M52Y = -5.62
* I54Y = -5.93
* E55Y = -6.44
* R56Y = -0.78
* A57Y = -0.16
* G58Y = -6.15
* D59Y = -2.41
* I60Y = -3.99
* T61Y = -0.33
* W62Y = -6.13
* E63Y = -2.47
* K64Y = -0.81
* D65Y = -4.74
* A66Y = -6.02
* E67Y = -4.95
* V68Y = -5.75
* T69Y = -6.20
* G70Y = -6.30
* N71Y = -5.51
* S72Y = -5.94
* P73Y = 0.17
* R74Y = -5.61
* L75Y = -6.94
* D76Y = -0.85
* V77Y = -6.38
* A78Y = 0.09
* L79Y = -6.10
* D80Y = -4.28
* E81Y = -6.19
* S82Y = -2.52
* G83Y = -0.22
* D84Y = -2.93
* F85Y = 0.27
* S86Y = -0.15
* L87Y = -6.34
* V88Y = -4.76
* E89Y = -0.28
* E90Y = -0.16
* D91Y = -1.79
* G92Y = -1.11
* P93Y = -3.30
* P94Y = -3.59
* M95Y = -0.05
* R96Y = -3.58
* E97Y = -2.97
* I98Y = -6.00
* I99Y = -3.60
* L100Y = -1.07
* K101Y = -6.43
* V102Y = -5.83
* V103Y = -5.86
* L104Y = -6.12
* M105Y = -5.88
* A106Y = -4.13
* I107Y = -5.24
* C108Y = -6.42

The authors count -1 or higher as tolerated. Position 1 is the last residue of NS2A. Six mutants with high scores were retested singly and none clearly outgrew wild type, so positive values are not proof of better growth. The region was split into three libraries (1-103, 104-206, 207-308).

Data from the supplement of Ni et al. 2025, doi:10.1038/s41467-025-63602-z.